System: human hepatocytes HepG2
Assay: Cytotoxicity against HepG2 cells
Conditions: Selectivity index: EC50 (cell line)/EC50 (T. b. brucei)

| Compound | HepG2 SI |
| --- | --- |
| O=C(Nc1ccc2sc(-c3ccc(F)c(F)c3)nc2c1)N1CCC(F)(F)C1 [Compound 9, 2-(3,4-Difluorophenyl)-5-(3,3-difluoro-N-pyrrolidylamido)benzothiazole] | >54 |
| O=C(Nc1ccc2sc(-c3ccccc3)nc2c1)c1cccs1 [Compound 18, 2-Phenyl-5-(2-thienylamido)benzothiazole] | >57 |
| O=C(Nc1ccc2sc(-c3ccccc3F)nc2c1)N1CCCC1 [Compound 32, 2-(2-Fluorophenyl)-5-(N-pyrrolidylamido)benzothiazole] | >51 |
| O=C(Nc1ccc2sc(-c3ccccc3F)nc2c1)N1CCCCC1 [Compound 33, 2-(2-Fluorophenyl)-5-(N-piperidylamido)benzothiazole] | >53 |
